One compound from ChEMBL document CHEMBL1201862, “PubChem BioAssay data set” (2004) can be followed below.

This test concerns the target T1, Thioredoxin peroxidase (Schistosoma mansoni) (UniProt O97161).
T1 sequence (whole entry): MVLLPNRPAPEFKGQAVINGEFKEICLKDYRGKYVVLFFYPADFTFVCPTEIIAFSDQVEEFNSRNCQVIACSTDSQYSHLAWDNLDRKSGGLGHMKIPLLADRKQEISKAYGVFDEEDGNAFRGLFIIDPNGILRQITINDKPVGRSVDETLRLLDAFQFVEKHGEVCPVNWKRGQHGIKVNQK
The test is described as follows: Confirmation Concentration-Response Assay for Inhibitors of the Schistosoma mansoni Redox Cascade. [Related pubchem assays: 448 ]. The class given is functional.

Some of the results follow. No cut-off for these calls is given here.

Consider `CCc1nc2c([nH]1)c1no[n+]([O-])c1c1no[n+]([O-])c21`, for which the Potency is active: 13.1 µM.
